The data set can be described thus: acute in vivo toxicity after intravenous injection. More on the design: species or system mouse. The following applies: 7 nmol i.v. How it is done: Acute in vivo toxicity. All animal experiments were performed in accordance with protocols approved by the Institutional Animal Care and Use Committee of MSK and followed the National Institute of Health guidelines for animal welfare. Six athymic nude mice 6-8 weeks old were purchased from Envigo RMS, Inc. An intravenous (IV) catheter was placed in tail vein of each mouse and they were anesthetized using Isoflurane (Novaplus, Telangana-India). Anesthesia was maintained using 1.0 to 1.5 L/min of Isoflurane and 2 L/min of oxygen. Three animals were injected with 68 μM, 7 nmol Hsp1a-FL in 100 μL of PBS, and the other three with […], of PBS. Animals were monitored using a rodent surgical monitor (Indus instruments, Houston, Tex.) before, during, and up to 16 minutes after injection. Numeric data points represent averaged values of 5±1 seconds duration. Data was collected before injection, 15 seconds after injection, 5 minutes after injection and 15 minutes after injection. Mouse body core temperature was measured by placing a rectal probe and electronically regulated via a surgical platform. The high-resolution electrocardiogram (EKG) was measured by placing non-invasive electrodes on the 4 paws and electrical contact was assured using a conducting gel (Electrode cream, Indus instruments, Houston, Tex.). Heart rate was automatically calculated from the R-R peaks derived from the EKG signal. Peripheral capillary oxygen saturation (SpO2) was non-invasively measured by placing a clip sensor on the animal's left thigh.
Statistical Analysis. Data were statistically analyzed by generalized estimating equations followed by LSD post hoc test when appropriate using SPSS 23.0. […] Average and standard deviations were calculated for each mouse.
Unless otherwise stated, data points represent mean values and error bars represent the standard deviation of biological replicates (mean±SEM). All p-values were calculated using a Student's unpaired t-test. […] Statistical significance was determined with alpha=0.05. […]

For `CC[C@H](C)[C@H](NC(=O)[C@H](CCCCN)NC(=O)[C@@H]1CSSC[C@@H]2NC(=O)[C@@H]3CCCN3C(=O)[C@H](CCCNC(=N)N)NC(=O)[C@H](CCC(=O)O)NC(=O)[C@H](CO)NC(=O)[C@H](CC(=O)O)NC(=O)[C@@H]3CSSC[C@H](NC(=O)[C@H](C(C)C)NC(=O)[C@H](CC(C)C)NC(=O)CNC(=O)[C@H](CCC(=O)O)NC(=O)[C@H](CSSC[C@H](NC(=O)[C@@H](N)Cc4ccc(O)cc4)C(=O)N[C@@H](CCC(N)=O)C(=O)N[C@@H](CCCCNC(=O)CCC4=[N+]5C(=Cc6c(C)cc(C)n6[B-]5(F)F)C=C4)C(=O)N[C@@H](Cc4ccccc4)C(=O)N[C@@H](CC(C)C)C(=O)N[C@@H](Cc4c[nH]c5ccccc45)C(=O)N[C@@H]([C@@H](C)O)C(=O)N3)NC2=O)C(=O)N[C@@H](CCCNC(=N)N)C(=O)N[C@@H](CC(C)C)C(=O)N[C@@H](Cc2c[nH]c3ccccc23)C(=O)N1)C(=O)N[C@@H](CC(N)=O)C(N)=O` [Hsp1a-FL], the “average percentage of oxygen saturation (SpO2)” value (from here on “average percentage”) (15 seconds post injection) is reported as 90.3 (SD=6.0) %, the “average percentage” value (5 minutes post injection) was 89.2 (SD=7.4) % and the “average percentage” value (15 minutes post injection) is 90.3 (SD=5.6) %.

For the origin of these results see patent US20220089663A1, “PROTEINS AND FLUOROPHORE-CONTAINING COMPOUNDS SELECTIVE FOR NaV1.7” (MEMORIAL SLOAN KETTERING CANCER CENTER, priority 2019, published 2022).
